Among the data in ChEMBL document CHEMBL1773071, “Development of tricyclic hydroxy-1H-pyrrolopyridine-trione containing HIV-1 integrase inhibitors” (Bioorg Med Chem Lett, 2011) are Ratio IC50 values, retold here.

Structures are written as SMILES.

Assay [1] deals with Human immunodeficiency virus 1. As to the kind of experiment: Resistant fold, ratio of IC50 for HIV1 integrase G140S/Q148H mutant strand transfer activity to IC50 for wild type HIV1 integrase strand transfer activity in presence of magnesium.
The subject of assay [2] is Human immunodeficiency virus 1. As to the kind of experiment: Resistant fold, ratio of IC50 for HIV1 integrase Y143R mutant strand transfer activity to IC50 for wild type HIV1 integrase strand transfer activity in presence of magnesium.
For assay [3], the system named is Human immunodeficiency virus 1. As to the kind of experiment: Resistant fold, ratio of IC50 for HIV1 integrase N155H mutant strand transfer activity to IC50 for wild type HIV1 integrase strand transfer activity in presence of magnesium.

With `O=C1c2c(c3n(c(=O)c2O)CCCC3)C(=O)N1Cc1ccc(F)c(Cl)c1`, the Ratio IC50 in assay [1] turned out to be 6; in assay [2], 2; in assay [3] it was 3.
